Among the data in patent US20160068577 are Kd values, retold here.

This assay has as its target HER2, human, P04626 23-1255.

In the case of αHER2-VHH fused with SLT-1A, the Kd (usually the concentration at which binding is half-saturated) amounted to 2.35 nM.
